Values of other authors, collected in PMC9694544, “Conteltinib (CT-707) in patients with advanced ALK-positive non-small cell lung cancer: a multicenter, open-label, first-in-human phase 1 study” (BMC Medicine, 2022).

Test system: patients with ALK-positive NSCLC
Conditions: cited from earlier work

For `CCc1cc2c(cc1N1CCC(N3CCOCC3)CC1)C(C)(C)c1[nH]c3cc(C#N)ccc3c1C2=O` [alectinib], the “patients with diarrhea, nausea, and vomiting” value is listed as < 10%.
